Record: PubChem BioAssay AID1224833 (University of Georgia, 2016)
Test: 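Host factors restraining rotavirus as candidate antiviral genes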 (primary screen). System: monkey MA104 kidney cells. Knock-down reagent: siRNA pool against human genes, 50 nM. Duration: 48 h knock-down before infection; read 24 h after infection. Treatment: infection with rotavirus strain RV3 two days after transfection; infectious dose for this stage not given. Detection: 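Rotavirus antigen per well by fluorescent immunoassay, normalised to non-targeting control wells on each plate and given as a standard z-score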. Reading the numbers: z-score vs non-targeting control: higher = more rotavirus replication than with non-targeting control. Call rule: In these data the active calls have z-score vs non-targeting control at about -1 or lower, or at about 1 or higher. Calls: active = z-score beyond 1 either way; inactive = z-score within 1 of zero.
This is a random part of about 12,000 reagents tested. About 5,600 of them (46%) were called active. 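Active calls cover z-scores past 1 in both directions, so they include lowered as well as raised rotavirus replication.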

Gene | z-score vs non-targeting control | outcome
SMPDL3A (sphingomyelin phosphodiesterase acid like 3A) | -1.39 | active
MCUB | -2.88 | active
POGLUT2 (protein O-glucosyltransferase 2) | -0.955 | inactive
NCF1 (neutrophil cytosolic factor 1) | 2.28 | active
SRBD1 (S1 RNA binding domain 1) | -1.21 | active
NFKBIL1 (NFKB inhibitor like 1) | -1.96 | active
OR4C16 (olfactory receptor family 4 subfamily C member 16) | -0.43 | inactive
COX6B1 (cytochrome c oxidase subunit 6B1) | 0.854 | inactive
TES (testin LIM domain protein) | -3.06 | active
AGRN (agrin) | -0.888 | inactive
TCF4 (transcription factor 4) | -0.974 | inactive
ORM2 (orosomucoid 2) | 0.554 | inactive
VPREB1 (V-set pre-B cell surrogate light chain 1) | -1.88 | active
IRF9 (interferon regulatory factor 9) | -1.45 | active
SHISA4 (shisa family member 4) | -2.93 | active
TNIP2 (TNFAIP3 interacting protein 2) | -2.19 | active
IFIT3 (interferon induced protein with tetratricopeptide repeats 3) | -1.59 | active
INIP (INTS3 and NABP interacting protein) | -0.489 | inactive
KRT35 (keratin 35) | -1.7 | active
THAP8 (THAP domain containing 8) | -0.405 | inactive
NCOR1 (nuclear receptor corepressor 1) | -1.13 | active
RSAD1 (radical S-adenosyl methionine domain containing 1) | 2.23 | active
AVPI1 (arginine vasopressin induced 1) | -0.422 | inactive
KPRP (keratinocyte proline rich protein) | -1.35 | active
ATXN2L (ataxin 2 like) | -0.272 | inactive
ACTL6A (actin like 6A) | 2.2 | active
ZNF3 (zinc finger protein 3) | -2.29 | active
COA1 (cytochrome c oxidase assembly factor 1) | 1.93 | active
ARFGAP2 (ARF GTPase activating protein 2) | 1.17 | active
RASSF5 (Ras association domain family member 5) | -0.303 | inactive
CTRC (chymotrypsin C) | 0.919 | inactive
TDRD12 (tudor domain containing 12) | -0.722 | inactive
ATP7B (ATPase copper transporting beta) | -1.7 | active
UPK2 (uroplakin 2) | 1.17 | active
TOGARAM1 (TOG array regulator of axonemal microtubules 1) | -0.761 | inactive
FEM1A (fem-1 homolog A) | 0.665 | inactive
OR1L6 (olfactory receptor family 1 subfamily L member 6) | -0.371 | inactive
NEU1 (neuraminidase 1) | 1.79 | active
BET1 (Bet1 golgi vesicular membrane trafficking protein) | -1.08 | active
INO80B (INO80 complex subunit B) | -1.63 | active
SLC66A2 | -0.0229 | inactive
ATP5MC3 (ATP synthase membrane subunit c locus 3) | -1.41 | active
SLC8A3 | -1.71 | active
DRC8 (dynein regulatory complex subunit 8) | -0.581 | inactive
SON (SON DNA and RNA binding protein) | -2.99 | active
CRTC2 (CREB regulated transcription coactivator 2) | -0.344 | inactive
RPUSD2 (RNA pseudouridine synthase domain containing 2) | -0.815 | inactive
CCDC85B (coiled-coil domain containing 85B) | 2.42 | active
IPO9 (importin 9) | -0.617 | inactive
NATD1 (N-acetyltransferase domain containing 1) | -1.36 | active

Continued (3 carried over from the part before).
Gene | z-score vs non-targeting control | outcome
CCDC85B (coiled-coil domain containing 85B) | 2.42 | active
IPO9 (importin 9) | -0.617 | inactive
NATD1 (N-acetyltransferase domain containing 1) | -1.36 | active
PTBP3 (polypyrimidine tract binding protein 3) | -1.69 | active
HSPA1A (heat shock protein family A (Hsp70) member 1A) | -1.19 | active
ZNF35 (zinc finger protein 35) | -0.659 | inactive
SNTA1 (syntrophin alpha 1) | -1.01 | active
WDR81 (WD repeat domain 81) | -0.641 | inactive
NRK (Nik related kinase) | 3.49 | active
IZUMO1R (IZUMO1 receptor, JUNO) | -2 | active
ATP8A1 (ATPase phospholipid transporting 8A1) | -1.94 | active
RMDN2 (regulator of microtubule dynamics 2) | -1.02 | active
FAM90A1 (family with sequence similarity 90 member A1) | -0.702 | inactive
TMEM203 (transmembrane protein 203) | 1.29 | active
PCNP (PEST proteolytic signal containing nuclear protein) | 0.531 | inactive
QRSL1 (glutaminyl-tRNA amidotransferase subunit QRSL1) | -1.68 | active
CCR10 (C-C motif chemokine receptor 10) | 0.551 | inactive
SLC22A7 | 1.68 | active
DNAJC25-GNG10 (DNAJC25-GNG10 readthrough) | -1.31 | active
ZNF708 (zinc finger protein 708) | 0.111 | inactive
TBC1D5 (TBC1 domain family member 5) | -0.885 | inactive
ATG5 (autophagy related 5) | -2.96 | active
ERP27 (endoplasmic reticulum protein 27) | 0.714 | inactive
LRFN3 | -0.725 | inactive
SACS (sacsin molecular chaperone) | -0.0921 | inactive
OR9G4 (olfactory receptor family 9 subfamily G member 4) | -1.61 | active
EIF1 (eukaryotic translation initiation factor 1) | 0.753 | inactive
C11orf52 (chromosome 11 open reading frame 52) | -1.84 | active
IL2RA (interleukin 2 receptor subunit alpha) | -1.81 | active
POLR2C (RNA polymerase II subunit C) | 0.745 | inactive
FDXR (ferredoxin reductase) | -0.737 | inactive
NANOS2 (nanos C2HC-type zinc finger 2) | -0.0324 | inactive
HSPA2 (heat shock protein family A (Hsp70) member 2) | -2.16 | active
CCDC140 (CCDC140 long non-coding RNA) | -0.553 | inactive
PIGP (phosphatidylinositol glycan anchor biosynthesis class P) | 0.5 | inactive
CRTAM (cytotoxic and regulatory T cell molecule) | -0.384 | inactive
C1orf198 (chromosome 1 open reading frame 198) | -1.31 | active
JAM2 (junctional adhesion molecule 2) | -3.03 | active
SHOC2 (SHOC2 leucine rich repeat scaffold protein) | -0.716 | inactive
UNC13D (unc-13 homolog D) | 0.023 | inactive
LYRM2 (LYR motif containing 2) | 1.77 | active
SP1 (Sp1 transcription factor) | -0.51 | inactive
ZAR1 (zygote arrest 1) | -1.08 | active
OR8D4 (olfactory receptor family 8 subfamily D member 4) | 0.314 | inactive
ARHGEF39 (Rho guanine nucleotide exchange factor 39) | -0.367 | inactive
CD2BP2 (CD2 cytoplasmic tail binding protein 2) | -0.62 | inactive
TMSB10 (thymosin beta 10) | -1.58 | active
TMTC1 (transmembrane O-mannosyltransferase targeting cadherins 1) | 0.736 | inactive
EDRF1 (erythroid differentiation regulatory factor 1) | -0.899 | inactive
SIRPD (signal regulatory protein delta) | 1.83 | active
KANSL3 (KAT8 regulatory NSL complex subunit 3) | 1.37 | active
ZEB2 (zinc finger E-box binding homeobox 2) | -0.896 | inactive
SPPL3 (signal peptide peptidase like 3) | -3.94 | active
PHLDB2 (pleckstrin homology like domain family B member 2) | -0.526 | inactive
FGF12 (fibroblast growth factor 12) | 0.896 | inactive
SLC51A | 0.239 | inactive
SH2D3C (SH2 domain containing 3C) | 1.16 | active
PPP1R42 (protein phosphatase 1 regulatory subunit 42) | 1.32 | active
FAM117B (family with sequence similarity 117 member B) | -0.941 | inactive
DKK2 (dickkopf Wnt signaling pathway inhibitor 2) | 0.199 | inactive
XCR1 (X-C motif chemokine receptor 1) | -1.2 | active
CSRNP1 (cysteine and serine rich nuclear protein 1) | -0.932 | inactive
REN (renin) | 0.81 | inactive
